From US20070032460A1, “Use of voacamine and related compounds in the treatment of malaria” (priority 2005, published 2007)

Test system: CQ-resistant (W2) strain of P. falciparum
Experiment: Antimalarial IC50, radiolabel incorporation in cultured P. falciparum, chloroquine-resistant strain

For N6Demethylvoacamine, the “Ratio (S/R)” value (IC50 against sensitive strain divided by IC50 for resistant strain) was 0.5 and the IC50 (read-out: IC50 (10^−7 M) R, chloroquine-resistant strain of P. falciparum, in vitro, Table V) was 960 nM.
